Consider three sequences from patent publication US5821046.

Construct, isoform or probe ends are uncertain for at least one entry.

Series [1] has as its target HIV-1 Tat (Human immunodeficiency virus 1) (UniProt P04608). Briefly: competition with a labelled probe. Conditions: purified recombinant protein; label: 32P.
The target is the same in series [2]. Briefly: EMSA. Conditions: wild-type affinity; purified recombinant protein; variant of HIV-1 TAR RNA 59-mer (UUU bulge).

Consider “GGGUCUCUCUGGUUAGACCAGAUUUGAGCCUGGGAGCUCUCUGGCUAACUAGGGAACCC [HIV-1 TAR RNA 59-mer (UUU bulge)]”, for which the IC50 in series [1] is 64 nM.

Regarding “GGGUCUCUCUGGUUAGACCAGAUUUGAGCUCCCAGGCUCUCUGGCUAACUAGGGAACCC [SSA chimera]”, the binding result in series [2] is “binds”.

Consider “GGGUUCCCUAGUUAGACCAGAUUUGAGCCUGGGAGCUCUCUGGCUAACCAGAGAGACCC [ASS chimera]”, for which the binding result in series [2] is listed as “binds”.

By IC50 is commonly meant the point on the concentration scale where inhibition reaches its midpoint.
